Reference: patent publication US20240109955A1 (published 2024)
Read-outs that look alike come from different tables or passages of the source.

Key:
Experiment in all cases: cell-based or functional assay
[1] = molecular target: SARS-CoV-2 D614G spike protein mutant (SARS-CoV-2, UniProt P0DTC2 14-1273)
[2] = molecular target: SARS-CoV-2 D614G spike protein mutant (SARS-CoV-2, UniProt P0DTC2 14-1273); remark: listed apart in the source
[3] = molecular target: SARS-CoV-2 original Wuhan strain (WA1) spike protein (SARS-CoV-2, UniProt P0DTC2 14-1273)
[4] = molecular target: SARS-CoV-2 spike protein, original Wuhan strain (WA1) (SARS-CoV-2, UniProt P0DTC2 14-1273)
[5] = molecular target: SARS-CoV-2 spike protein, D614G spike protein mutant (SARS-CoV-2, UniProt P0DTC2 14-1273)

Binder	IC80, pseudovirus neutralization [1]	IC80, pseudovirus neutralization [2]	IC50, pseudovirus neutralization [3]	IC80, pseudovirus neutralization [3]	other results
MX1042 (bispecific antibody) DTVMTQSPLSLPVTPGEPASISCRSSQSLLNSNGYNYLDWYVQKPGQSPQLLIYLGSNRASGVPDRFSGSGSGTDFTLKISRVEAEDVGVYYCMQPLQTPLFTFGPGTKVEIKGGSSGEIVLTQSPGTLSLSPGETATLSCRASQSFSSDLAWYQQKPGQAPRLLIYGASSRATGIPDRFSGSGSGTDFTLTISRLEPADFAVYYCQQYGSSPPVTFGGGTKVEIKGGGGSGGSGSGGGGSASGSGEVQLVESGGGLIQPGGSLRLSCAASGVIVSYNYMNWVRQAPGKGLEWVSVIYSGGSTFYADSVRGRFTISRDNSKNTLYLQMNSLRAEDTAVYYCARDLGPAGAFDIWGLGTMVTVSSGGSSGQVTLRESGPALVKPTQTLTLTCTFSGFSLSTRGVCVSWIRQPPGKALEWLAFIDWDDDKYYNTSLKTRLTISKDTSKNQVVLTMTNVHPVDTATYYCARISSHHGSSWCTTFDYWGQGALVTVSAASGGSGDKTHTCPPCPAPELLGGPSVFLFPPKPKDTLMISRTPEVTCVVVDVSHEDPEVKFNWYVDGVEVHNAKTKPREEQYNSYVVSVLTVLHQDWLNGKEYKCKVSNKALPAPIEKTISKAKGQPREPQVYTLPPSRDELTKNQVSLTCLVKGFYPSDIAVEWESNGQPENNYKTTPPVLDSDGSFFKKLTVDKSRWQQGNVFSCSVLHEALHSHYTQKSLSLSPG	0.0122 µg/mL				
MX1024 (bispecific antibody) EIVMTQSPAILSVSPGERATLSCRASQSVAINLAWYQQKPGQAPRLLIYAASSRATGIPGRFSGSGSETNFTLTISSLQSGDFAVYYCQQYITWPPSYTFGQGTKLEIKGGSSGDTVMTQSPLSLPVTPGEPASISCRSSQSLLNSNGYNYLDWYVQKPGQSPQLLIYLGSNRASGVPDRFSGSGSGTDFTLKISRVEAEDVGVYYCMQPLQTPLFTFGPGTKVEIKGGGGSGGSGSGGGGSASGSGQVTLRESGPALVKPTQTLTLTCTFSGFSLSTRGVCVSWIRQPPGKALEWLAFIDWDDDKYYNTSLKTRLTISKDTSKNQVVLTMTNVHPVDTATYYCARISSHHGSSWCTTFDYWGQGALVTVSAGGSSGEVQLVESGGALIQPGGSLRLSCAASGIIVSANYMSWVRQAPGKGLEWVSVIYSGGSTFYADSVKGRFTISRDNSKNTLYLEMNSLRAEDTAVYYCARDAPILGVSDWGQGTLVTVSSASGGSGDKTHTCPPCPAPELLGGPSVFLFPPKPKDTLMISRTPEVTCVVVDVSHEDPEVKFNWYVDGVEVHNAKTKPREEQYNSYVVSVLTVLHQDWLNGKEYKCKVSNKALPAPIEKTISKAKGQPREPQVYTLPPSRDELTKNQVSLTCLVKGFYPSDIAVEWESNGQPENNYKTTPPVLDSDGSFFKKLTVDKSRWQQGNVFSCSVLHEALHSHYTQKSLSLSPG		0.00816 µg/mL	0.00176 µg/mL	0.0157 µg/mL	
MX1022 (bispecific antibody) DTVMTQSPLSLPVTPGEPASISCRSSQSLLNSNGYNYLDWYVQKPGQSPQLLIYLGSNRASGVPDRFSGSGSGTDFTLKISRVEAEDVGVYYCMQPLQTPLFTFGPGTKVEIKGGSSGEIVMTQSPAILSVSPGERATLSCRASQSVAINLAWYQQKPGQAPRLLIYAASSRATGIPGRFSGSGSETNFTLTISSLQSGDFAVYYCQQYITWPPSYTFGQGTKLEIKGGGGSGGSGSGGGGSASGSGEVQLVESGGALIQPGGSLRLSCAASGIIVSANYMSWVRQAPGKGLEWVSVIYSGGSTFYADSVKGRFTISRDNSKNTLYLEMNSLRAEDTAVYYCARDAPILGVSDWGQGTLVTVSSGGSSGQVTLRESGPALVKPTQTLTLTCTFSGFSLSTRGVCVSWIRQPPGKALEWLAFIDWDDDKYYNTSLKTRLTISKDTSKNQVVLTMTNVHPVDTATYYCARISSHHGSSWCTTFDYWGQGALVTVSAASGGSGDKTHTCPPCPAPELLGGPSVFLFPPKPKDTLMISRTPEVTCVVVDVSHEDPEVKFNWYVDGVEVHNAKTKPREEQYNSYVVSVLTVLHQDWLNGKEYKCKVSNKALPAPIEKTISKAKGQPREPQVYTLPPSRDELTKNQVSLTCLVKGFYPSDIAVEWESNGQPENNYKTTPPVLDSDGSFFKKLTVDKSRWQQGNVFSCSVLHEALHSHYTQKSLSLSPG		0.0133 µg/mL			
MX1069 (other) chain 1: QTVVTQEPSFSVSPGGTVTLTCGLSSGSVSTAYFPSWYQQTPGQAPRTLIYGTNTRSSGVPDRFSGSILGNKAALTITGAQADDESDYYCVLYMGRGIVVFGGGTKLTVLGGSSGEIVLTQSPGTLSLSPGETATLSCRASQSFSSDLAWYQQKPGQAPRLLIYGASSRATGIPDRFSGSGSGTDFTLTISRLEPADFAVYYCQQYGSSPPVTFGGGTKVEIKGGGGSGGSGSGGGGSASGSGEVQLVESGGGLIQPGGSLRLSCAASGVIVSYNYMNWVRQAPGKGLEWVSVIYSGGSTFYADSVRGRFTISRDNSKNTLYLQMNSLRAEDTAVYYCARDLGPAGAFDIWGLGTMVTVSSGGSSGQVQLVESGGGVVQPGRSLRLSCAASGFTLSSYGMHWVRQAPGKGLEWVAVISYDGSNKYYVDSVKGRFTISRDNSKNTLYLQMNSLRAEDTAVYYCRWAYWELLPDYYYGMDVWGQGTTVTVSSASGGSGDKTHTCPPCPAPELLGGPSVFLFPPKPKDTLMISRTPEVTCVVVDVSHEDPEVKFNWYVDGVEVHNAKTKPREEQYNSYVVSVLTVLHQDWLNGKEYKCKVSNKALPAPIEKTISKAKGQPREPQVYTLPPCRDELTKNQVSLWCLVKGFYPSDIAVEWESNGQPENNYKTTPPVLDSDGSFFKKLTVDKSRWQQGNVFSCSVLHEALHSHYTQKSLSLSPG chain 2: EIVLTQSPGTLSLSPGETATLSCRASQSFSSDLAWYQQKPGQAPRLLIYGASSRATGIPDRFSGSGSGTDFTLTISRLEPADFAVYYCQQYGSSPPVTFGGGTKVEIKGGSSGDTVMTQSPLSLPVTPGEPASISCRSSQSLLNSNGYNYLDWYVQKPGQSPQLLIYLGSNRASGVPDRFSGSGSGTDFTLKISRVEAEDVGVYYCMQPLQTPLFTFGPGTKVEIKGGGGSGGSGSGGGGSASGSGQVTLRESGPALVKPTQTLTLTCTFSGFSLSTRGVCVSWIRQPPGKALEWLAFIDWDDDKYYNTSLKTRLTISKDTSKNQVVLTMTNVHPVDTATYYCARISSHHGSSWCTTFDYWGQGALVTVSAGGSSGEVQLVESGGGLIQPGGSLRLSCAASGVIVSYNYMNWVRQAPGKGLEWVSVIYSGGSTFYADSVRGRFTISRDNSKNTLYLQMNSLRAEDTAVYYCARDLGPAGAFDIWGLGTMVTVSSASGGSGDKTHTCPPCPAPELLGGPSVFLFPPKPKDTLMISRTPEVTCVVVDVSHEDPEVKFNWYVDGVEVHNAKTKPREEQYNSYVVSVLTVLHQDWLNGKEYKCKVSNKALPAPIEKTISKAKGQPREPQVCTLPPSRDELTKNQVSLSCAVKGFYPSDIAVEWESNGQPENNYKTTPPVLDSDGSFFLVSKLTVDKSRWQQGNVFSCSVLHEALHSHYTQKSLSLSPG					IC50, pseudovirus neutralization [4]: 0.0332 µg/mL; IC80, pseudovirus neutralization [4]: 0.0382 µg/mL; IC50, pseudovirus neutralization [5]: 0.00547 µg/mL; IC80, pseudovirus neutralization [5]: 0.0239 µg/mL
MX1041 (bispecific antibody) QTVVTQEPSFSVSPGGTVTLTCGLSSGSVSTAYFPSWYQQTPGQAPRTLIYGTNTRSSGVPDRFSGSILGNKAALTITGAQADDESDYYCVLYMGRGIVVFGGGTKLTVLGGSSGEIVLTQSPGTLSLSPGETATLSCRASQSFSSDLAWYQQKPGQAPRLLIYGASSRATGIPDRFSGSGSGTDFTLTISRLEPADFAVYYCQQYGSSPPVTFGGGTKVEIKGGGGSGGSGSGGGGSASGSGEVQLVESGGGLIQPGGSLRLSCAASGVIVSYNYMNWVRQAPGKGLEWVSVIYSGGSTFYADSVRGRFTISRDNSKNTLYLQMNSLRAEDTAVYYCARDLGPAGAFDIWGLGTMVTVSSGGSSGQVQLVESGGGVVQPGRSLRLSCAASGFTLSSYGMHWVRQAPGKGLEWVAVISYDGSNKYYVDSVKGRFTISRDNSKNTLYLQMNSLRAEDTAVYYCRWAYWELLPDYYYGMDVWGQGTTVTVSSASGGSGDKTHTCPPCPAPELLGGPSVFLFPPKPKDTLMISRTPEVTCVVVDVSHEDPEVKFNWYVDGVEVHNAKTKPREEQYNSYVVSVLTVLHQDWLNGKEYKCKVSNKALPAPIEKTISKAKGQPREPQVYTLPPSRDELTKNQVSLTCLVKGFYPSDIAVEWESNGQPENNYKTTPPVLDSDGSFFKKLTVDKSRWQQGNVFSCSVLHEALHSHYTQKSLSLSPG	0.0457 µg/mL				
MX1023 (bispecific antibody) EIVMTQSPAILSVSPGERATLSCRASQSVAINLAWYQQKPGQAPRLLIYAASSRATGIPGRFSGSGSETNFTLTISSLQSGDFAVYYCQQYITWPPSYTFGQGTKLEIKGGSSGQTVVTQEPSFSVSPGGTVTLTCGLSSGSVSTAYFPSWYQQTPGQAPRTLIYGTNTRSSGVPDRFSGSILGNKAALTITGAQADDESDYYCVLYMGRGIVVFGGGTKLTVLGGGGSGGSGSGGGGSASGSGQVQLVESGGGVVQPGRSLRLSCAASGFTLSSYGMHWVRQAPGKGLEWVAVISYDGSNKYYVDSVKGRFTISRDNSKNTLYLQMNSLRAEDTAVYYCRWAYWELLPDYYYGMDVWGQGTTVTVSSGGSSGEVQLVESGGALIQPGGSLRLSCAASGIIVSANYMSWVRQAPGKGLEWVSVIYSGGSTFYADSVKGRFTISRDNSKNTLYLEMNSLRAEDTAVYYCARDAPILGVSDWGQGTLVTVSSASGGSGDKTHTCPPCPAPELLGGPSVFLFPPKPKDTLMISRTPEVTCVVVDVSHEDPEVKFNWYVDGVEVHNAKTKPREEQYNSYVVSVLTVLHQDWLNGKEYKCKVSNKALPAPIEKTISKAKGQPREPQVYTLPPSRDELTKNQVSLTCLVKGFYPSDIAVEWESNGQPENNYKTTPPVLDSDGSFFKKLTVDKSRWQQGNVFSCSVLHEALHSHYTQKSLSLSPG		0.0406 µg/mL	0.0153 µg/mL	0.0824 µg/mL	
